Publication PMC8531726
The exact form of at least one protein or probe is not confirmed. The comparison behind a weaker result is the experiment's own reference, which may not be listed here. Where a protein sequence is shown, tags need not be part of it.

What follows are sequences tested on T1, Zur (Pseudomonas aeruginosa) (assay: EMSA). Settings: 500 nM Zur, 30 uM TPEN (Zn depleted), complete interaction only with Zn, EMSA: 30 ng DNA, 5X Zn-less binding buffer (50 mM Tris, 200 mM KCl, 50 mM MgCl2, 5 mM DTT, 25% glycerol), recombinant protein, residues 1-167, probe letters rebuilt from the primers and the genome.
T1 sequence (looked up): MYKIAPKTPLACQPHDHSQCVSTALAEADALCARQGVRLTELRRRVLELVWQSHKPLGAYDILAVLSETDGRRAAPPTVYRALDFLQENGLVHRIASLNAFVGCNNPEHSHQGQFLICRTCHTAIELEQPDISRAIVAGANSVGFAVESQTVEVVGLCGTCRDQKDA

Binding result, binds more weakly:
GTGCTGCACACAGACTCTCGTCTTCCAGTCAAGAGCCTTGGGATGCAGACTGTTTTTCAAATCATGACAACTTCTTAACGCGCATTGTTATAAAGTTGCGGGCGTTTGCGCCGGCCTGGCCGGTACCTTCGAGTTTTGCCTGGAGTGAAGATGAGAGTCGACCTGGAC (double strand) [pPA2439]
TCGAGCAGCCGAATGGTCGCCGGGAACTCTTTCCGGAGTTGCGAATTATTCTTATCGGAGTAATATGTAACTATATAACATTATGTAGGAGGCATCCCCATGAAACCCGGCATCCATCCCGAATACCGTCCCGTCCTGTTCCATGACACCTCGGCCGACGTGTACTTCCTGATCGGCTCCACC (double strand) [prpmE2]
CTCTGCCAGACCAGTTCCAGCACGCGCCGCCGCAGTTCGGTCAGGCGCACGCCCTGGCGCGCGCACAGCGCATCGGCCTCGGCCAGCGCGGTGCTGACGCACTGGCTGTGGTCATGGGGCTGGCAGGCCAGCGGGGTCTTGGGCGCAATCTTGTACATGGGCTGCGACGCTCGAGGGTAGAGACGTTATTATATTACCCGCTAACCACCTTTCA (double strand) [pznuA]
ATGGGCCTGGGCGGCGAACGGCAGCAAGACGAGGGCTAACAGCAGTGGGCGCATGAACGGGACTCCGGCAAGGAAGGAAAAGAGTTTGTTACGTTATAACGAATTTTTCCGCCTGCCTAGCCTGGCCGATTTGGCCCCTACGCGCCGACGTGGGAGCATGGCGCGATTCGCTTGTGGAGAAAC (double strand) [pPA4063]
ACTTTCCCGTTCCTCTTCGCCGGCAGGCATGCGGACATTGCCGCTGCACGTCGGCACGACGCCATGCAGAGTGGCTACGCGGGTCTACCGACACAAAAAGAAATAATATAACATCCCAATAAATACGCCGATCCGACCCCGTCGCCCTTCCTCCGGGAAGGGCCTGGGTTCGCTTTGGCCTGAAAAAAGTCCGACCCA (double strand) [pznuD]
